No dose or concentration is given here for some results.
Test system: Pseudomonas putida DOT-T1E
Assay: Growth on minimal medium with different carbon sources
Assay type: cell-based
Conditions: substance as carbon source in liquid M9 minimal medium, exponential growth phase

`O=C(O)CC(O)(CC(=O)O)C(=O)O` [Citrate] was tested, and the Doubling time was 92 min.

Source: patent publication US7348421B1, “Methods for production of p-hydroxybenzoate in bacteria” (North Carolina State University, priority 2000, dated 2008)
